A short description of series [1]: Transfer of antimicrobial coating to release liner, light microscopy. The settings on record: sprayed from 0.56% by weight solution; after sterilization.
Series [2] in a line: Transfer of antimicrobial coating to release liner, LC-MS quantification. The settings on record: after sterilization, 200 gsm silicone adhesive.
The nature of series [3]: Rolling ball tack test (ASTM D 3121-06) on coated wound contact layers. The settings on record: for Tackiness (displacement in mm): sterile.

Results on two molecules are retold here after patent publication US20240181121A1, “A WOUND CARE PRODUCT COMPRISING AN ANTIMICROBIAL COATING” (Mölnlycke Health Care AB, priority 2021, published 2024).

In the case of `N=C(NCCCCCCNC(=N)NC(=N)Nc1ccc(Cl)cc1)NC(=N)Nc1ccc(Cl)cc1.O=C(O)[C@H](O)[C@@H](O)[C@H](O)[C@H](O)CO.O=C(O)[C@H](O)[C@@H](O)[C@H](O)[C@H](O)CO` [CHG, chlorhexidine gluconate], in series [1], the “transfer of coating from silicone surface to release liner (light microscopy)” value is recorded as “majority of the CHG coating transferred”. In series [2], the “amount of antimicrobial transferred to the release liner” value was “more than 64%” and the “amount of spray coated antimicrobial present on the silicone surface” value is reported as “Less than 36%”.

`N=C(NCCCCCCNC(=N)NC(=N)Nc1ccc(Cl)cc1)NC(=N)Nc1ccc(Cl)cc1` [CHP, chlorhexidine phosphate]: the “impact on the tackiness” value in series [3] (15, 45 and 75 μg/cm^2 vs non-coated control) is given as “no significant impact”. For the same molecule, the entries for the “Tackiness (displacement in mm)” value in series [3] (theoretical concentration 15 ug/cm2), in series [3] (theoretical concentration 45 ug/cm2) and in series [3] (theoretical concentration 75 ug/cm2) were 13 +/− 4%, 15 +/− 0% and 16 +/− 5%, respectively. Also, the “transfer of coating from silicone surface to release liner (light microscopy)” value in series [1] was “only minor transfer”. Also, the “amount of spray coated antimicrobial present on the silicone surface” value in series [2] was “more than 66%”.
